Values quoted from earlier work in publication PMC9025269, “Synthesis and Anti-Hepatitis B Activities of 3′-Fluoro-2′-Substituted Apionucleosides” (Molecules, 2022).

Tested on: HBV
Set-up: method as in PMID 21364549
Settings: long-term administration; lamivudine within five years; cited from earlier work

SMILES	development (incidence) of drug-resistant mutation [%]
C=C1[C@H](CO)[C@@H](O)C[C@@H]1n1cnc2c(=O)[nH]c(N)nc21 [Compound 1, entecavir, reference compound]	1.2
Nc1ccn([C@@H]2CS[C@H](CO)O2)c(=O)n1 [Lamivudine, lamivudine]	≤ 70
